Measured values from patent US4835162A (priority 1987, dated 1989).

Test system: rats
Assay: Blockade of nicotine-induced prostration, intraventricular (Example 2)
Format: in vivo, Sprague-Dawley male rats
Conditions: i.v.c. 1 min. prior to 2 nmoles nicotine; dose producing 50% efficacy

CNC(=O)OC1CN2CCC1CC2 (stereo not shown)
Blockade of (nicotine-induced prostration) EC50: 100 nmol
